# Replication capacity of HIV-1 mutants, RT

Data from the supplement of Al-Mawsawi et al. 2014, doi:10.1186/s12977-014-0124-6.

Protein: RT of HIV-1 NL4-3, numbered from its first residue.
Effects on overlapping genes or RNA elements are not listed.

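Seven fragments of pNL4-3 were mutated by error-prone PCR, and each virus pool was passaged in CEM T cells. Sequencing gave the RC index: frequency after two rounds over frequency in the input plasmid.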

RC index: lower means poorer replication; rough cut-offs are 0.1 (lethal) and 0.2 (tolerated).
Substitutions are written as wild-type residue, site number, new residue.
Input reads are the counts in the plasmid library.
Base changes are numbered along pNL4-3.
An index over 1, which the authors read as above wild type, was rare (1.9% of all changes in the genome).
Clones carried about five changes per kilobase, which can drag down the index of neutral changes.

| change | base | input reads | replication capacity index |
|---|---|---|---|
| I2V | A2553G | 364 | 0.0471 |
| P4L | C2560T | 493 | 0.0596 |
| D17E | T2600G | 81 | 0.0526 |
| K22I | A2614T | 470 | 0.0363 |
| T27S | A2628T | 413 | 0.0516 |
| E28D | A2633T | 392 | 0.0272 |
| I37N | T2659A | 314 | 0.0950 |
| E42V | A2674T | 351 | 0.0243 |
| N54K | T2711A | 566 | 0.0341 |
| P55A | C2712G | 181 | 0.0426 |
| Y56F | A2716T | 235 | 0.0435 |
| N57Y | A2718T | 239 | 0.0499 |
| N57I | A2719T | 219 | 0.0156 |
| P59T | C2724A | 167 | 0.112 |
| K64R | A2740G | 172 | 0.158 |
| F77L | C2780A | 165 | 0.134 |
| E89V | A2815T | 221 | 0.0308 |
| G99R | G2844A | 374 | 0.0501 |
| L100F | A2849T | 374 | 0.0362 |
| V108I | G2871A | 490 | 0.134 |
| S117P | T2898C | 682 | 0.0580 |
| V118A | T2902C | 499 | 0.0459 |
| L120I | T2907A | 361 | 0.0115 |
| A129P | G2934C | 93 | 0.0336 |
| I132V | A2943G | 461 | 0.0203 |
| I132L | A2943T | 259 | 0.0161 |
| M164I | G3041A | 221 | 0.172 |
| T165S | A3042T | 478 | 0.0397 |
| D192G | A3124G | 207 | 0.0454 |
| L193I | T3126A | 446 | 0.0548 |
| G196V | G3136T | 239 | 0.0786 |
| H198N | C3141A | 138 | 0.109 |
| H198L | A3142T | 445 | 0.0422 |
| L205P | T3163C | 352 | 0.0854 |
| P226S | C3225T | 372 | 0.0859 |
| K263E | A3336G | 167 | 0.0254 |
| I270V | A3357G | 430 | 0.0209 |
| L283P | T3397C | 129 | 0.0492 |
| V293L | G3426T | 180 | 0.0441 |
| Y318F | A3502T | 261 | 0.0223 |
| D320V | A3508T | 195 | 0.0497 |
| I326T | T3526C | 180 | 0.129 |
| E328G | A3532G | 214 | 0.0634 |
| Q336H | A3557T | 329 | 0.0471 |
| Q340R | A3568G | 392 | 0.0593 |
| I341V | A3570G | 126 | 0.0461 |
| N348S | A3592G | 209 | 0.0185 |
| K353R | A3607G | 246 | 0.0551 |
| M357K | T3619A | 276 | 0.0562 |
| E370D | G3659T | 360 | 0.0590 |
| P392S | C3723T | 259 | 0.113 |
| W398C | G3743T | 243 | 0.328 |
| T409S | C3775G | 38 | 0.140 |
| P420L | C3808T | 123 | 0.0594 |
| L429F | A3836T | 325 | 0.0674 |
| A455T | G3912A | 292 | 0.0875 |
| D460E | C3929G | 83 | 0.0660 |
| E516V | A4096T | 304 | 0.0431 |
| I522M | A4115G | 166 | 0.128 |
| L533P | T4147C | 384 | 0.0598 |
| K540E | A4167G | 372 | 0.0352 |
| I542F | A4173T | 252 | 0.0325 |
| G544R | G4179A | 220 | 0.372 |
| L560I | C4227A | 155 | 0.0873 |

Extract of 5 entries:

* L193I (base T3126A, input reads 446): 0.0548
* I132L (base A2943T, input reads 259): 0.0161
* Q340R (base A3568G, input reads 392): 0.0593
* D460E (base C3929G, input reads 83): 0.0660
* E370D (base G3659T, input reads 360): 0.0590